Measured values from several laboratories, pooled; numbers as filed in NIAID ChemDB.

Common to all: cytotoxicity tests; cells: MT-4; read-out: CC50

Rows are shuffled and stem from different studies.

CCOCn1c(Sc2ccc3ccccc3c2)c(CC)c(=O)[nH]c1=O ; read by: MTT ; result: 42.19 µM
Cc1cn([C@H]2C[C@H](N=[N+]=[N-])[C@@H](CO)O2)c(=O)nc1NN(C)C ; result: 68.3 µM
CSc1ccc(OP(=O)(OC[C@@H]2C=C[C@H](n3cnc4c(=O)[nH]cnc43)O2)OC[C@@H]2C=C[C@H](n3cnc4c(=O)[nH]cnc43)O2)cc1 ; read by: trypan blue ; result: >250 µM
CC(C[C@H](NC(=O)COc1cccc2cnccc12)C(=O)N[C@@H](Cc1ccccc1)[C@H](O)C(=O)N1CSC[C@H]1C(=O)NC(C)(C)C)C(F)(F)F ; read by: MTT ; result: 12.5 µg/mL
Nc1ccn([C@H]2CC[C@@H](CO)O2)c(=O)n1 ; result: 219 µM
Cc1cn([C@@H]2C[C@@H](N=[N+]=[N-])[C@H](COC(=O)OC[C@H]3O[C@@H](n4cc(C)c(=O)[nH]c4=O)C[C@@H]3N=[N+]=[N-])O2)c(=O)[nH]c1=O ; read by: MTT ; result: 119.2 µM
Cc1cn([C@H]2C[C@H](N=[N+]=[N-])[C@@H](CO)O2)c(=O)[nH]c1=O ; result: 30 µM
CS(=O)(=O)c1ccc(OP(=O)(OC[C@@H]2C=C[C@H](n3cnc4c(N)ncnc43)O2)OC[C@@H]2C=C[C@H](n3cnc4c(N)ncnc43)O2)cc1 ; read by: trypan blue ; result: >250 µM
C1CNCCNCCCN[C@@H]([C@H]2CNCCCNCCNCCCN2)CNC1 ; result: 172 µg/mL
O=C1/C(=C/c2ccc(Cl)c(Cl)c2)COC/C1=C\c1ccc(Cl)c(Cl)c1 ; read by: MTT ; result: 200 µM
Cc1cccnc1N1C(=O)CSC1c1c(F)cccc1F ; read by: MTT ; result: 319.3 µM
O=[N+]([O-])c1ccccc1/C=N/c1nc2ccccc2s1 ; read by: MTT ; result: 25 µM
O=c1ccn([C@H]2C=C[C@@H](CO)O2)c(=O)[nH]1 ; read by: trypan blue ; result: 42 µM
COc1ccc(C=Nc2nsc3ccc(C)cc23)cc1 ; read by: MTT ; result: 5 µM
Cc1cn([C@H]2C[C@H](N=[N+]=[N-])[C@@H](CO)O2)c(=O)[nH]c1=O ; result: >20 µM
Nc1nc(Cl)c2ncn([C@@H]3CS[C@@H](CO)S3)c2n1 ; result: >100 µg/mL
OC1/C(=C/c2ccc(Cl)c(Cl)c2)COC/C1=C\c1ccc(Cl)c(Cl)c1 ; read by: MTT ; result: 165 µM
CCOP(=O)(CC(=O)Nc1ccn([C@H]2CS[C@@H](CO)O2)c(=O)n1)OCC ; result: 500 µM
COc1ccc(-c2csc(/N=C/c3ccc(O)c(OC)c3)n2)cc1 ; read by: MTT ; result: ≥100 µM
Cc1cn([C@H]2C=C[C@@H](CO)O2)c(=O)[nH]c1=O ; read by: trypan blue ; result: 14 µM
O=C1CSC(c2c(F)cccc2F)N1c1ccccc1 ; read by: MTT ; result: 429 µM
CC1(C)[C@@H](O[C@H]2O[C@H](C(=O)O)[C@@H](O)[C@H](O)[C@H]2O[C@@H]2O[C@H](C(=O)O)[C@@H](O)[C@H](O)[C@H]2O)CC[C@]2(C)[C@H]3C(=O)C=C4[C@@H]5C[C@@](C)(C(=O)O)CC[C@]5(C)CC[C@@]4(C)[C@]3(C)CC[C@@H]12 ; result: 756 µM
C[C@@H]1[C@H](O)[C@@H](C)/C=C/C=C/C=C/C=C/C=C/C=C/C=C/[C@H](O[C@@H]2O[C@H](C)[C@@H](O)[C@H](N)[C@@H]2O)CC2O[C@](O)(CC(O)C(O)CCC(O)CC(O)CC(O)CC(=O)O[C@H]1C)CC(O)C2C(=O)O.O=S(=O)(O)O ; result: >2000 µg/mL
O=S1(=O)NC(Cc2ccc(Cl)cc2Cl)=CC(=NC2CCN(Cc3ccccc3)CC2)N1 ; read by: MTT ; result: 110.8 µM
Cc1cn([C@H]2C[C@H](N=[N+]=[N-])[C@@H](CO)O2)c(=O)[nH]c1=O ; read by: MTT ; result: 0.29 µg/mL
C=COC(=O)OC[C@@H]1C=C[C@H](n2cc(C)c(=O)[nH]c2=O)O1 ; read by: MTT ; result: 217.6 µM
CC(C)(C)NC(=O)[C@@H]1CSCN1C(=O)[C@@H](O)[C@H](Cc1ccccc1)NC(=O)[C@H](CCC(F)(F)F)NC(=O)COc1cccc2cnccc12 ; read by: MTT ; result: 25 µg/mL
Cc1cn([C@H]2C[C@H](N=[N+]=[N-])[C@@H](CO)O2)c(=O)[nH]c1=O ; read by: MTT ; result: >93.55 µM
Nc1ccn([C@H]2CC[C@@H](CO)O2)c(=O)n1 ; result: >100 µM
Clc1ccccc1/C=N/c1nc2ccccc2s1 ; read by: MTT ; result: >100 µM
CS(=O)(=O)c1ccc(OP(=O)(OC[C@@H]2CC[C@H](n3cnc4c(=O)[nH]cnc43)O2)OC[C@@H]2CC[C@H](n3cnc4c(=O)[nH]cnc43)O2)cc1 ; read by: trypan blue ; result: >250 µM
CCOP(=O)(CC(=O)OC[C@H]1O[C@@H](n2ccc(N)nc2=O)CS1)OCC ; result: 500 µM
c1cc(CN2CCCNCCNCCCNCC2)ccc1CN1CCCNCCNCCCNCC1 ; read by: MTT ; result: >1 µM
CCC(C)Oc1cc(=O)[nH]c(Sc2cc(C)cc(C)c2)n1 ; result: ≥200 µM
N#Cc1cccc(CN2CCC(N=C3C=C(Cc4cccc5ccccc45)NS(=O)(=O)N3)CC2)c1 ; read by: MTT ; result: 113 µM
Cc1cccc(C)c1OCC(=O)N[C@@H](Cc1ccccc1)[C@@H](O)C[C@H](Cc1ccccc1)NC(=O)[C@H](C(C)C)N1CCCNC1=O ; read by: WST ; result: 46.9 µM
CC(=O)Nc1ccn([C@H]2CS[C@@H](COC(=O)P(=O)(O)O)O2)c(=O)n1 ; result: 100 µM
Nc1nc2c(ncn2CCOCP(=O)(O)O)c(=O)[nH]1 ; result: 1.7 µM
CS(=O)(=O)c1ccc(OP(=O)(OC[C@@H]2CC[C@H](n3ccc(=O)[nH]c3=O)O2)OC[C@@H]2CC[C@H](n3ccc(=O)[nH]c3=O)O2)cc1 ; read by: trypan blue ; result: >250 µM
CCc1c(Sc2ccc3ccccc3c2Cl)n(COC)c(=O)[nH]c1=O ; read by: MTT ; result: 192.9 µM
Nc1nc(=O)n([C@@H]2CC[C@H](CO)O2)cc1F ; result: 70 µM
O=c1ccn([C@H]2C[C@H](F)[C@@H](CO)O2)c(=O)[nH]1 ; result: 2.4 µM
Nc1ccn([C@@H]2CS[C@@H](CO)S2)c(=O)n1 ; result: >100 µg/mL
CCCc1c(Sc2cccc3ccccc23)n(COCC)c(=O)[nH]c1=O ; read by: MTT ; result: 37.11 µM
COC1=C(OC)/C(=C/COP(=O)(O)OCC2OC(n3cnc4c(N)ncnc43)C(O)C2OP(=O)(O)COCCn2cnc3ncnc(N)c32)OC1=O ; result: >300 µg/mL
Cc1cn([C@@H]2C=C[C@H](COC(=O)NCCCCNC(=O)OC[C@H]3O[C@@H](n4cc(C)c(=O)[nH]c4=O)C[C@@H]3N=[N+]=[N-])O2)c(=O)[nH]c1=O ; read by: MTT ; result: 217.3 µM
Cc1cn([C@H]2C[C@H](N=[N+]=[N-])[C@@H](COC(=O)CCC(=O)OC[C@H]3O[C@@H]4O[C@H]5[C@H](O)[C@@H](O)[C@@H](O[C@H]6[C@H](O)[C@@H](O)[C@@H](O[C@H]7[C@H](O)[C@@H](O)[C@@H](O[C@H]8[C@H](O)[C@@H](O)[C@@H](O[C@H]9[C@H](O)[C@@H](O)[C@@H](O[C@H]3[C@H](O)[C@H]4O)O[C@@H]9CO)O[C@@H]8CO)O[C@@H]7CO)O[C@@H]6CO)O[C@@H]5CO)O2)c(=O)[nH]c1=O ; read by: MTT ; result: 7.37 µg/mL
CC(C)c1c(Sc2ccc3ccccc3c2)n(COCc2ccccc2)c(=O)[nH]c1=O ; read by: MTT ; result: 187 µM
O=C(O)c1ccc2ccc(/C=C/c3cc(O)c(O)c(O)c3)nc2c1O ; read by: MTT ; result: >100 µM
Fc1ccc2nc(/N=C/c3cccc(Cl)c3)sc2c1 ; read by: MTT ; result: >100 µM
CCC(C)Oc1cc(N)nc(S(=O)(=O)c2ccc(Cl)cc2)n1 ; result: 82 µM
O=C1CSC(c2c(Cl)cccc2Cl)N1c1cccnc1 ; read by: MTT ; result: >23.4 µM
C[C@H]1[C@H](CO)C=C[C@@H]1n1ccc(N)nc1=O ; result: >100 µg/mL
CCOCn1c(Sc2ccccc2)c(CC)c(=O)[nH]c1=O ; result: >100 µM
Cc1cn([C@H]2C[C@H](N=[N+]=[N-])[C@@H](CO)O2)c(=O)[nH]c1=O ; read by: MTT ; result: 168.5 µM
Cc1cc(C)c(CN2CCC(N=C3C=C(Cc4cccc5ccccc45)NS(=O)(=O)N3)CC2)c(C)c1 ; read by: MTT ; result: 70.22 µM
Cc1cn([C@@H]2C=C[C@H](COC(=O)NCCCCNC(=O)OC[C@@H]3C=C[C@H](n4cc(C)c(=O)[nH]c4=O)O3)O2)c(=O)[nH]c1=O ; read by: MTT ; result: 178.5 µM
C[C@H](Cn1cnc2c(N)ncnc21)OCP(=O)(O)O ; result: >100 µM
Cc1cn([C@H]2C=C[C@@H](COP(=O)(OC[C@@H]3C=C[C@H](n4cc(C)c(=O)[nH]c4=O)O3)Oc3ccc(S(C)(=O)=O)cc3)O2)c(=O)[nH]c1=O ; read by: trypan blue ; result: >250 µM
Cc1cn([C@H]2C[C@H](N=[N+]=[N-])[C@@H](CO)O2)c(=O)[nH]c1=O ; read by: MTT ; result: >93.55 µM
CCC(C)Oc1cc(N)nc(Sc2ccccc2C)n1 ; result: 99 µM
CCC[C@]1(CCc2ccccc2)CC(O)=C([C@@H](CC)c2cccc(NS(=O)(=O)c3ccc(C(F)(F)F)cn3)c2)C(=O)O1 ; read by: WST ; result: 42.8 µM
CCC(C)Oc1cc(=O)[nH]c(Sc2cccc(OC)c2)n1 ; result: >300 µM
O=C1CSC(c2c(F)cccc2F)N1c1cccnc1 ; read by: MTT ; result: 427 µM
CCc1c(Sc2ccc3ccccc3c2N)n(COC)c(=O)[nH]c1=O ; read by: MTT ; result: 180 µM
C1CNCCNCCCNCCNC1 ; result: 226 µg/mL
Cc1ccnc2c1NC(=O)c1cccnc1N2C1CC1 ; result: >50 µM
CCCCCCCCCCCCCCCC(=O)O ; read by: MTT ; result: >333 µM
CCN[C@H]1CO[C@@H]2OC[C@H](OC(=O)N[C@@H](Cc3ccccc3)[C@H](O)CN(CC(C)C)S(=O)(=O)c3ccc4nc(NC5CC5)sc4c3)[C@@H]21 ; read by: WST ; result: 40.5 µM
Nc1nc2c(ncn2[C@@H]2CS[C@@H](CO)S2)c(=O)[nH]1 ; result: >100 µg/mL
c1cc(CN2CCCNCCNCCCNCC2)ccc1CN1CCCNCCNCCCNCC1 ; result: 55 µM
Cc1cc(C)c(CN2CCC(N=C3C=C(Cc4ccc(Cl)cc4Cl)NS(=O)(=O)N3)CC2)c(C)c1 ; read by: MTT ; result: 37.35 µM
Cc1cn([C@H]2C[C@H](N=[N+]=[N-])[C@@H](CO)O2)c(=O)[nH]c1=O ; result: 4.97 µM
Nc1ccn([C@H]2CS[C@@H](CO)S2)c(=O)n1 ; result: >100 µg/mL
CCOCn1c(Sc2cc(C)cc(C)c2)c(C(C)C)c(=O)[nH]c1=S ; result: >50 µM
Nc1ccn([C@H]2CC[C@@H](CO)O2)c(=O)n1 ; read by: MTT ; result: >2.12 µg/mL
O=C1NC(=O)C(=Cc2cc(O)c(O)c(O)c2)C(=O)N1 ; read by: MTT ; result: 50 µM
CCc1c(Sc2cccc3ccccc23)n(COCc2ccc(F)cc2)c(=O)[nH]c1=O ; read by: MTT ; result: 30.96 µM
Cc1ccnc2c1NC(=O)c1cccnc1N2C1CC1 ; read by: MTT ; result: >15.02 µM
Nc1ccn([C@H]2C=C[C@@H](CO)O2)c(=O)n1 ; read by: trypan blue ; result: 20 µM
CCc1c(Sc2ccc3ccccc3c2N)n(COCc2ccccc2)c(=O)[nH]c1=O ; read by: MTT ; result: >37.88 µM
O=C1/C(=C/c2ccc(O)c(O)c2)CCC/C1=C\c1ccc(O)c(O)c1 ; read by: MTT ; result: 7.4 µM
CC(C)c1c(Sc2cccc3ccccc23)n(COCC2CC2)c(=O)[nH]c1=O ; read by: MTT ; result: 32.75 µM
Clc1cccc(C=Nc2nsc3ccccc23)c1 ; read by: MTT ; result: 9 µM

Repeating the first 11 entries:

compound | read by | result
CCOCn1c(Sc2ccc3ccccc3c2)c(CC)c(=O)[nH]c1=O | MTT | 42.19 µM
Cc1cn([C@H]2C[C@H](N=[N+]=[N-])[C@@H](CO)O2)c(=O)nc1NN(C)C |  | 68.3 µM
CSc1ccc(OP(=O)(OC[C@@H]2C=C[C@H](n3cnc4c(=O)[nH]cnc43)O2)OC[C@@H]2C=C[C@H](n3cnc4c(=O)[nH]cnc43)O2)cc1 | trypan blue | >250 µM
CC(C[C@H](NC(=O)COc1cccc2cnccc12)C(=O)N[C@@H](Cc1ccccc1)[C@H](O)C(=O)N1CSC[C@H]1C(=O)NC(C)(C)C)C(F)(F)F | MTT | 12.5 µg/mL
Nc1ccn([C@H]2CC[C@@H](CO)O2)c(=O)n1 |  | 219 µM
Cc1cn([C@@H]2C[C@@H](N=[N+]=[N-])[C@H](COC(=O)OC[C@H]3O[C@@H](n4cc(C)c(=O)[nH]c4=O)C[C@@H]3N=[N+]=[N-])O2)c(=O)[nH]c1=O | MTT | 119.2 µM
Cc1cn([C@H]2C[C@H](N=[N+]=[N-])[C@@H](CO)O2)c(=O)[nH]c1=O |  | 30 µM
CS(=O)(=O)c1ccc(OP(=O)(OC[C@@H]2C=C[C@H](n3cnc4c(N)ncnc43)O2)OC[C@@H]2C=C[C@H](n3cnc4c(N)ncnc43)O2)cc1 | trypan blue | >250 µM
C1CNCCNCCCN[C@@H]([C@H]2CNCCCNCCNCCCN2)CNC1 |  | 172 µg/mL
O=C1/C(=C/c2ccc(Cl)c(Cl)c2)COC/C1=C\c1ccc(Cl)c(Cl)c1 | MTT | 200 µM
Cc1cccnc1N1C(=O)CSC1c1c(F)cccc1F | MTT | 319.3 µM

CCn: concentration that lowers growth or viability of the cells by n%. Blank or dashed fields: not listed here.